Positions count from the first letter of the chain named. Human monoclonal antibodies against the spike receptor-binding domain (heavy:light variable regions). IC50 against pseudoviruses bearing the spike of naturally observed variants; lower = stronger; >10 µg/ml means not reached at the top dose. No active / inactive call. The stated detection limit is 0.0005 µg/ml; values near or below 0.001 µg/ml lie at the floor of the assay.
B1: BD57-0318 (protein)
chain 1: QITLKESGPTLVKPTQTLTLTCTFSGFSLSTSGVGVGWIRQPPGKALEWLALIFWDDDKRYSPSLKSRLTITKDTSKNQVVLTMANMDPVDTATYYCAHSGHLLWFDSLFFDYWGQGTLVTVSS
chain 2: ERVMTQSPATMSVSPGERATLSCRASQSVSSNLAWYQQKPGQAPRLLIYGASTRATGIPARFSGSGSGTEFTLTISSLQSEDFAVYYCQQYNNWPPAFGPGTKVDIK
B2: BD57-0383 (protein)
chain 1: QMQLVQSGPEVKKPGTSVKVSCKASGFTFTSSAIQWVRQARGQRLEWIGWIVVGSGNTNYAQKFQERVTITRDMSTSTVYMELSSLRSEDTAVYYCVAGGYSGYGALDYWGQGTLVTVSS
chain 2: not shown
B3: BD58-0563 (protein)
chain 1: EVQLLESGGGRAQPGRSLRLSCAASGFTFGSYVMNWVRQAPGKGLEWVSTVSGTTGNTYYADSVKGRFTISRDNSKNTLYLQMNRLRAEDTAVYYCVTERRDFSSPYPSYFFDYWGQGTLVTVSS
chain 2: SSELTQDSAVSVALGQTVRITCQGDSLRSYYASWYQQKPGQAPMLVLYGNNNRPSGIPDRFSGSSSGRTASLTITGAQAEDEADYYCNSRDSSGNHRVFGGGTKLTVL
B4: BD58-0493 (protein)
chain 1: QVTLRESGPALVKPTQTLTLTCTFSGFSLSTAGMCVTWIRQPPGKALEWLALISWDDDKYYSTSLKTWLSISKDTSKNQVVLTLPNMDPVDTATYYCARINGQITHAFDIWGQGTMVTVSS
chain 2: EIVMMQSPATLSLSPGERATLSCRASQSVSSNLAWYQQKPGQAPRLLIYAASTRATGIPARFSGSGSGTEFTLTISSLQSEDFAVYYCQQYNNWPRYTFGQGTKLEIK
B5: BD57-0332 (protein)
chain 1: QLQLQESGPGLVKPSATLSLTCNVSGGSISSSIYWWAWIRQSPGMGLEWIGSIYNNGNTYYNPSLKSRVTILVDTSKNHFSLKVTSVTAQDTAVYFCARHTGGTSLLTGFAPWGQGTLVTVSS
chain 2: DIHMTQSPSSVSASVGDRVTITCRASQALSSWLAWYQQRPGKPPTLLIYPASTLQSGVPSRFSGSESGTDFTLTISSLQPEDFATYYCQQANSFPLTFGGGTKVEIK
B6: BD57-0130 (protein)
chain 1: QLQLQESGPGLVKPSETLSLTCTVSGGSISSNNYYWGWIRQPPGKGLEWIGSIYYSGSTYYNPSLKSRVTISVDTSKNQFSLKLSSVTAADTAVYYCARRAAAAGTYQEFSFDYWGQGTLVTVSS
chain 2: QSVLTQPPSVSGAPGQRVTISCTGSSSNIGAGYDVHWYQQLPGTAPKLLIYGNSNRPSGVPDRFSGSKSGTSASLAITGLQAEDEADYYCQSYDSSLSGAVFGGGTKLTVL
B7: BD57-0370 (protein)
chain 1: QLQLQESGPGLVKPSETLSLTCTVSGGSLSSSSYYWGWIRQPPGKGLEWIGSIYYSGNTYYNPSLKSRVTISVDTSKNQFSLKLSSVTAADTAVYYCARRRYDYGDYGRFDPWGQGTLVIVSS
chain 2: B6 chain 2 with Q40H, G52D, S54T, S95I, A100S
B8: BD57-0298 (protein)
chain 1: QVQLQESGPGLVKPSETLSLTCTVSGDSMGIHYWSWVRQPPGKGLEWVGSVYSSGSTNYNPPLKSRVAISVDTSNNQFSLMLNSVTAADTAVYFCARGYTWYATGGYYMDVWGKGTTVTVSS
chain 2: B6 chain 2 with S25T, G32K, Q39R, S54N, S72A, Y89F, S95I, A100S
B9: BD58-0560 (protein)
chain 1: EVQLVESGGGVVQPGGSLRLSCAASGFTFDDYVLHWVRQAPGKGLEWVSLISGDGVTTYYADSVKGRFTISRDNSKNSLYLQMNSLRSEDTALYYCANYYYGMDVWGQGTTVTVSS
chain 2: SYELTQPPSVSVSPGQTARITCSGDALPKKYAYWYQQKPGQAPVLVIYKDTERPSGIPERFSASSSGTTVTLTISGVQAEDEADYYCQSTDSSGSFLFGPGTKVTVL
B10: BD57-0395 (protein)
chain 1: QVQLVQSGAEVKKPGASVKVSCKASGYTFTNYYMHWVRQAPGQGLEWMGIINPNGGSTRYAQKFQGRVTMTRDTSTSTVYMELSSLRSEDTAVYYCASRGSGYDFSFYFDYWGQGTLVTVSS
chain 2: QSALTQPASVSGSPGQSISISCTGTSSDVGGYNYVSWYQQHPGKAPKLIIYDVSNRPSGVSNRFSGSKSGNTASLTISGLQAEDEADYYCSSYTSSYTHVVFGGGTKLTVL

Legend:
Experiment in all cases: pseudovirus neutralization IC50; higher = weaker neutralization
[1] = biological target: SARS-CoV-2 Omicron BA.1 spike pseudovirus
Experimental: (§1)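 Single-round VSV luciferase pseudovirus mixed with antibody dilutions for 1 h and put on Huh-7 cells for about a day; IC50 from the dose curve.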

[2] = biological target: SARS-CoV-2 Omicron BA.2 spike pseudovirus
Experimental: as §1

[3] = biological target: SARS-CoV-2 Omicron BA.2.75 spike pseudovirus
Experimental: as §1

[4] = biological target: SARS-CoV-2 Omicron BA.2.75.2 spike pseudovirus
Experimental: as §1

[5] = biological target: SARS-CoV-2 Omicron BA.5 spike pseudovirus
Experimental: as §1

[6] = biological target: SARS-CoV-2 Omicron BM.1.1.1 spike pseudovirus
Experimental: as §1

[7] = biological target: SARS-CoV-2 Omicron BQ.1.1 spike pseudovirus
Experimental: as §1

[8] = biological target: SARS-CoV-2 Omicron BR.2 spike pseudovirus
Experimental: as §1

[9] = biological target: SARS-CoV-2 Omicron CA.1 spike pseudovirus
Experimental: as §1

[10] = biological target: SARS-CoV-2 Omicron XBB spike pseudovirus
Experimental: as §1

[11] = biological target: SARS-CoV-2 early D614G spike pseudovirus
Experimental: as §1

Binder	pseudovirus neutralization IC50 [1] [µg/mL]	pseudovirus neutralization IC50 [2] [µg/mL]	pseudovirus neutralization IC50 [3] [µg/mL]	pseudovirus neutralization IC50 [4] [µg/mL]	pseudovirus neutralization IC50 [5] [µg/mL]	pseudovirus neutralization IC50 [6] [µg/mL]	pseudovirus neutralization IC50 [7] [µg/mL]	pseudovirus neutralization IC50 [8] [µg/mL]	pseudovirus neutralization IC50 [9] [µg/mL]	pseudovirus neutralization IC50 [10] [µg/mL]	pseudovirus neutralization IC50 [11] [µg/mL]
B1	> 10	> 10	> 10	> 10	> 10	> 10	> 10	> 10	> 10	> 10	> 10
B2	> 10	> 10	0.381	0.383	0.282	0.861	0.59	0.482	0.627	3.09	> 10
B3	> 10	> 10	> 10	> 10	> 10	> 10	> 10	> 10	> 10	> 10	> 10
B4	> 10	> 10	> 10	> 10	> 10	> 10	> 10	> 10	> 10	> 10	> 10
B5	> 10	> 10	> 10	> 10	> 10	> 10	> 10	> 10	> 10	> 10	> 10
B6	> 10	> 10	0.328	0.637	0.208	1.29	0.981	0.783	0.978	2.46	> 10
B7	> 10	0.0628	0.00697	0.0105	0.00106	0.00901	0.00493	0.009	0.00812	0.00842	> 10
B8	> 10	> 10	> 10	> 10	0.0864	> 10	> 10	> 10	> 10	> 10	> 10
B9	> 10	> 10	> 10	> 10	> 10	> 10	> 10	> 10	> 10	> 10	> 10
B10	> 10	> 10	> 10	> 10	1.43	> 10	> 10	> 10	> 10	> 10	> 10
